Assay results reported in the supplement of paper PMC3578754.

Assays:
Assay in all cases: fold change of IC50 against reference virus; higher = more resistant
[1] = compound: Nc1ccn([C@H]2CC[C@@H](CO)O2)c(=O)n1 [zalcitabine]
Protocol: (§1)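 Cell-culture drug susceptibility tests of virus bearing the reverse transcriptase of each isolate, gathered from many studies.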

[2] = compound: Cc1cn([C@H]2C[C@H](N=[N+]=[N-])[C@@H](CO)O2)c(=O)[nH]c1=O [zidovudine]
Protocol: as §1

[3] = compound: Cc1cn([C@H]2C=C[C@@H](CO)O2)c(=O)[nH]c1=O [stavudine]
Protocol: as §1

[4] = compound: O=c1[nH]cnc2c1ncn2[C@H]1CC[C@@H](CO)O1 [didanosine]
Protocol: as §1

[5] = compound: Cc1ccnc2c1NC(=O)c1cccnc1N2C1CC1 [nevirapine]
Protocol: as §1

HIV-1 isolate 1582 (reverse transcriptase changes: V75T K122E M184V F214L A272P K277R A376T A400T D460N S468T H483Y K512Q S519N, study 20)
fold change of IC50 against reference virus [1]: 30
fold change of IC50 against reference virus [2]: 1.2
fold change of IC50 against reference virus [3]: 2.2

HIV-1 isolate 1032 (reverse transcriptase changes: V60I D67N K70R I178L H208Y R211K T215Y K219Q L228H, study 69)
fold change of IC50 against reference virus [1]: 1
fold change of IC50 against reference virus [2]: 400
fold change of IC50 against reference virus [3]: 0.8

HIV-1 isolate 811 (reverse transcriptase changes: D67N K70R V118I Q207E R211K F214L T215F K219Q, study 69)
fold change of IC50 against reference virus [1]: 3
fold change of IC50 against reference virus [2]: 200
fold change of IC50 against reference virus [3]: 1.2

HIV-1 isolate 1379 (reverse transcriptase changes: K122E F214L T215Y A272P K277R, study 20)
fold change of IC50 against reference virus [1]: 1.4
fold change of IC50 against reference virus [2]: 24
fold change of IC50 against reference virus [3]: 1.3

HIV-1 isolate 1438 (reverse transcriptase changes: K122E D123S R211K V245M I326V I329L R358K T377I K390R T403M R461K L469I, study 103)
fold change of IC50 against reference virus [1]: 1
fold change of IC50 against reference virus [4]: 1
fold change of IC50 against reference virus [2]: 1
fold change of IC50 against reference virus [5]: 1

HIV-1 isolate 288 (reverse transcriptase changes: T69G K70R L74I K102Q K103N S162C T215F K219Q K277R, study 98)
fold change of IC50 against reference virus [1]: 13
fold change of IC50 against reference virus [4]: 8.2
fold change of IC50 against reference virus [2]: 10
fold change of IC50 against reference virus [5]: 27

HIV-1 isolate 289 (reverse transcriptase changes: T69G K102Q S162C K277R, study 98)
fold change of IC50 against reference virus [1]: 11
fold change of IC50 against reference virus [4]: 10
fold change of IC50 against reference virus [2]: 1.5
fold change of IC50 against reference virus [5]: 1

HIV-1 isolate 789 (reverse transcriptase changes: K65R K122E F214L A272P K277R M357T A376T A400T N447S D460N S468T S519N, study 10)
fold change of IC50 against reference virus [1]: 7.7
fold change of IC50 against reference virus [4]: 10
fold change of IC50 against reference virus [2]: 0.3
fold change of IC50 against reference virus [5]: 0.9

HIV-1 isolate 1419 (reverse transcriptase changes: K65R K122E M184V F214L A272P K277R A376T A400T D460N S468T H483Y K512Q S519N, study 74)
fold change of IC50 against reference virus [1]: 13
fold change of IC50 against reference virus [4]: 4.9
fold change of IC50 against reference virus [2]: 0.3

HIV-1 isolate 1400 (reverse transcriptase changes: K102Q S162C K277R I293V R358K V435I S468P K550G, study 142)
fold change of IC50 against reference virus [1]: 1
fold change of IC50 against reference virus [4]: 1
fold change of IC50 against reference virus [2]: 1

HIV-1 isolate 614 (reverse transcriptase changes: K122E F214L A272P K277R M357T A376T A400T N447S D460N S468T S519N, study 10)
fold change of IC50 against reference virus [1]: 1
fold change of IC50 against reference virus [4]: 1
fold change of IC50 against reference virus [2]: 1
fold change of IC50 against reference virus [5]: 1

HIV-1 isolate 1086 (reverse transcriptase changes: K102Q S162C M184V, study 39)
fold change of IC50 against reference virus [1]: 2
fold change of IC50 against reference virus [4]: 1
fold change of IC50 against reference virus [2]: 1

HIV-1 isolate 1541 (reverse transcriptase changes: K102Q S162C K277R, study 98)
fold change of IC50 against reference virus [1]: 1
fold change of IC50 against reference virus [4]: 1
fold change of IC50 against reference virus [2]: 1
fold change of IC50 against reference virus [5]: 1

HIV-1 isolate 558 (reverse transcriptase changes: K65R K122E F214L A272P K277R A376T A400T D460N S468T H483Y K512Q S519N, study 74)
fold change of IC50 against reference virus [1]: 12
fold change of IC50 against reference virus [4]: 3.1
fold change of IC50 against reference virus [2]: 0.4

HIV-1 isolate 843 (reverse transcriptase changes: D67N T69D K102Q S162C K277R I293V R358K V435I S468P K550G, study 142)
fold change of IC50 against reference virus [1]: 1.4
fold change of IC50 against reference virus [4]: 1
fold change of IC50 against reference virus [2]: 1

Fold change is the IC50 on the isolate divided by the IC50 on a reference virus; 1 = unchanged, higher = more resistant. Changes are given against the subtype B consensus. No active / inactive call. The values were gathered from many studies (numbered anew) with different assays, which the source does not name. Most viruses are clinical isolates; some are laboratory strains or clones with known resistance changes. Isolates with mixed residues are left out; stretches that were not sequenced show no change. Round top values that many isolates share are read here as limits; other very high values and 0.1 may be limits too.
